A mixed list of measured activities; the numbers were collected in NIAID ChemDB.

Common to all: toxicity to cultured cells; cell line: MT-4; read-out: CC50

CCn: concentration that lowers growth or viability of the cells by n%. An empty or dashed field is not shown. Neighbouring rows are from separate reports.

SMILES	method	value
COc1ccc(-c2csc(/N=C/c3ccccc3)n2)cc1	MTT	≥100 µM
C/C=C(\C)C(=O)O[C@@]12[C@H](O)[C@@H](C)[C@@]3(O)[C@@H](C=C(COC(=O)CCCCCCC/C=C\C/C=C\CCCCC)C[C@]4(O)C(=O)C(C)=C[C@@H]34)[C@@H]1C2(C)C	-	>62.5 µg/mL
C[C@H](CC[C@H](O)C(C)(O)CO)[C@H]1CC[C@@]2(C)C3=CC[C@H]4C(C)(C)C(=O)CC[C@]4(C)C3=CC[C@]12C	-	15.6 µM
Cc1cn([C@H]2C[C@H](N=[N+]=[N-])[C@@H](CO)O2)c(=O)[nH]c1=O	MTT	150 µM
COC(=O)c1sccc1NC(=O)CSc1nncnc1-c1ccccc1Cl	MTT	105 µM
N#Cc1c(N)cccc1S(=O)(=O)c1cc(Cl)ccc1Cl	-	197 µM
COc1c(CC=C(C)C)c(O)cc2c1C[C@H](c1ccc(O)c(CC=C(C)C)c1O)CO2	-	15 µg/mL
CCOc1cc(C)cc(S(=O)(=O)c2cccc(N)c2C#N)c1	-	167 µM
CCc1c(C(=O)c2cccc3ccccc23)n(Cc2ccccc2)c(=O)[nH]c1=O	MTT	33.67 µM
CC(C)C(C)/C=C/[C@@H](C)[C@H]1CCC2C3=C[C@@H](O)[C@@]4(O)C[C@@H](O)CC[C@]4(C)C3CC[C@@]21C	-	15.6 µM
COc1cc(C(F)(F)F)cc(S(=O)(=O)c2cccc(N)c2C#N)c1	-	94 µM
COc1cccc(C=Nc2nsc3ccccc23)c1O	MTT	6 µM
CC(C)(C)OC(=O)[C@@H]1CCCN1C[C@@H](O)[C@H](Cc1ccccc1)NC(=O)[C@H](CC(N)=O)NC(=O)OCc1ccccc1	MTT	202 µg/mL
CCc1c(C(=O)c2cccc3ccccc23)n(CC(=O)c2ccc(OC)cc2)c(=O)[nH]c1=O	MTT	28.75 µM
CCCCCCCCCCCC(=O)O[C@@]12[C@H](OC(=O)C(C)CC)[C@@H](C)[C@@]3(O)[C@@H](C=C(CO)C[C@]4(O)C(=O)C(C)=C[C@@H]34)[C@@H]1C2(C)C	-	>62.5 µg/mL
Cc1cnc(Nc2ccc(C#N)cc2)nc1C(O)c1ccc2ccccc2c1	MTT	6.1 µM
O=c1[nH]c2cc(NS(=O)(=O)c3ccc(F)cc3)ccc2c(=O)n1O	MTT	355.8 µM
CCc1c(C(=O)c2cccc3ccccc23)n(C/C=C/c2ccccc2)c(=O)[nH]c1=O	MTT	28.71 µM
Cc1cc(Br)cc(S(=O)(=O)c2cccc(N)c2C#N)c1	-	>200 µM
C[C@H](CC(=O)C[C@@H](C)[C@H]1C[C@H](O)[C@@]2(C)C3=C(C(=O)C[C@]12C)[C@@]1(C)CCC(=O)C(C)(C)[C@@H]1C[C@@H]3O)C(=O)O	-	>1000 µM
CC1(C)CCc2c(cc(O)c3c(=O)c4c(oc23)-c2ccc(O)cc2OC(C(C)(C)O)C4)O1	-	20 µg/mL
O=C(CSc1nncnc1-c1ccccc1Cl)Nc1ccccc1F	MTT	98 µM
Cc1cc(C)cc(S(=O)(=O)c2cccc(F)c2C#N)c1	-	200 µM
C[C@H](CC(=O)C[C@@H](C)[C@H]1CC(=O)[C@@]2(C)C3=C(C(=O)C[C@]12C)[C@@]1(C)CC[C@H](O)C(C)(C)[C@@H]1C[C@@H]3O)C(=O)O	-	>1000 µM
CCc1c(C(=O)c2cccc3ccccc23)n(CC(=O)OC)c(=O)[nH]c1=O	MTT	168 µM
O=[N+]([O-])c1ccc(/C=N/c2nccs2)cc1	MTT	63 µM
C[C@H](CCC=C(CO)CO)[C@H]1C[C@H](O)[C@@]2(C)C3=CC[C@H]4C(C)(C)C(=O)CC[C@]4(C)C3=CC[C@]12C	-	500 µM
COc1cc2oc(-c3ccc(O)cc3O)cc2c(OC)c1CC=C(C)C	-	>50 µg/mL
Cc1cc(C(O)c2ccc3ccccc3c2)nc(Nc2ccc(C#N)cc2)n1	MTT	31.2 µM
O=C(O)P(=O)(O)O	MTT	166 µg/mL
O=C(CSc1nncnc1-c1ccccc1Cl)Nc1ccccc1[N+](=O)[O-]	MTT	63 µM
Cc1cn([C@H]2C[C@H](N=[N+]=[N-])[C@@H](CO)O2)c(=O)[nH]c1=O	MTT	>93.55 µM
CCc1c(C(=O)c2cccc3ccccc23)n(C/C=C/C(=O)OC)c(=O)[nH]c1=O	MTT	34.44 µM
CC(C)(C)OC(=O)[C@@H]1CCCN1C[C@H](O)[C@H](Cc1ccccc1)NC(=O)[C@H](CC(N)=O)NC(=O)OCc1ccccc1	MTT	>250 µg/mL
COc1c(CC=C(C)C)cc(C2CC(=O)c3c(O)cc(O)cc3O2)c(CC=C(C)C)c1O	-	11 µg/mL
CCOP(=O)(N[C@@H](CC(C)C)C(=O)OC)OC[C@H]1O[C@@H](n2cc(C)c(=O)[nH]c2=O)C[C@@H]1N=[N+]=[N-]	MTT	>234 µg/mL
C#CCn1c(C(=O)c2cccc3ccccc23)c(CC)c(=O)[nH]c1=O	MTT	4.82 µM
CCCCC/C=C\C/C=C\CCCCCCCC(=O)OCC1=C[C@H]2[C@@H]3C(C)(C)[C@]3(OC(C)=O)[C@H](O)[C@@H](C)[C@]2(O)[C@@H]2C=C(C)C(=O)[C@@]2(O)C1	-	>62.5 µg/mL
CC(C)=CCc1c(-c2ccc(O)cc2O)oc2c(CC=C(C)C)c(O)cc(O)c2c1=O	-	44 µg/mL
CCCCCCCCCC(=O)O[C@@]12[C@H](OC(C)=O)[C@@H](C)[C@@]3(O)[C@@H](C=C(CO)C[C@]4(O)C(=O)C(C)=C[C@@H]34)[C@@H]1C2(C)C	-	>62.5 µg/mL
C[C@H]1[C@H](CO)C=C[C@@H]1n1cnc2c(N)ncnc21	-	>100 µg/mL
Cc1ccccc1NC(=O)CSc1nncnc1-c1cccc2ccccc12	MTT	>158 µM
O=[N+]([O-])c1cccc(/C=N/c2nc3ccccc3s2)c1	MTT	60 µM
COc1cc(C)cc(S(=O)(=O)c2cccc(N)c2C#N)c1	-	>200 µM

Repeating the final 2 entries:

SMILES	method	value
O=[N+]([O-])c1cccc(/C=N/c2nc3ccccc3s2)c1	MTT	60 µM
COc1cc(C)cc(S(=O)(=O)c2cccc(N)c2C#N)c1	-	>200 µM